For 1 molecule, koff and kon results are on record in patent publication US20230365662A1 (K BIO INVESTMENT, published 2023).

By koff is commonly meant the first-order rate constant of dissociation. One may read the kon as the rate constant with which the complex forms.

For the assay, the target named is T1, Porphyromonas gingivalis strain W83 whole cells (surface gingipain/adhesin/hemagglutinin complex).
T1 construct: also called whole P. gingivalis cells
In words: surface plasmon resonance, whole cells W83, row of 100 nM. For orientation: SPR reads the build-up and loss of mass on a sensor chip optically.

B1: KB001 (antibody, V domains shown)
VH: EVQLKQSGPGLVAPSQSLSITCTVSGFSLSIYSVHWVRQPPGKGLEWLGMIWGGGSSDYNSALKSRLSISKDNSKSQVFLKMNSLQTDDTAMYYCARNGNFYAMDYWGQGTSVTVSS
VL: QIVLTQSPAIMSASLGERVTMTCTASSSVSSSFLHWYQQKPGSSPQLWIYSTSNLASGVPARFSGSGSGTSYSLTISSMEAEDAATYYCHQYHHSPYIYTFGGGTKLEIKR
notes: also called KB001-WT-Ab; parental antibody
B1: the koff was 0.000219 s⁻¹ and the kon was found to be 19200 M⁻¹ s⁻¹.
